In the series the test system is HepG2-NTCP cells. Briefly: TMT-based phosphoproteome profiling of HBV-infected vs mock HepG2-NTCP (HBV/mock ratio). Set-up: species or system human. The following applies: phosphosite abundance ratio of host protein, HBV-infected vs mock HepG2-NTCP, 7dpi, sheet Up-regulated.

B1: Q8TBA6 1xPhospho [S116(100)] (protein, UniProt Q8TBA6 2-731, looked up)
Golgin subfamily A member 5: SWFVDLAGKAEDLLNRVDQGAATALSRKDNASNIYSKNTDYTELHQQNTDLIYQTGPKSTYISSAADNIRNQKATILAGTANVKVGSRTPVEASHPVENASVPRPSSHFVRRKKSEPDDELLFDFLNSSQKEPTGRVEIRKEKGKTPVFQSSQTSSVSSVNPSVTTIKTIEENSFGSQTHEAASNSDSSHEGQEESSKENVSSNAACPDHTPTPNDDGKSHELSNLRLENQLLRNEVQSLNQEMASLLQRSKETQEELNKARARVEKWNADHSKSDRMTRGLRAQVDDLTEAVAAKDSQLAVLKVRLQEADQLLSTRTEALEALQSEKSRIMQDQSEGNSLQNQALQTFQERLHEADATLKREQESYKQMQSEFAARLNKVEMERQNLAEAITLAERKYSDEKKRVDELQQQVKLYKLNLESSKQELIDYKQKATRILQSKEKLINSLKEGSGFEGLDSSTASSMELEELRHEKEMQREEIQKLMGQIHQLRSELQDMEAQQVNEAESAREQLQDLHDQIAGQKASKQELETELERLKQEFHYIEEDLYRTKNTLQSRIKDRDEEIQKLRNQLTNKTLSNSSQSELENRLHQLTETLIQKQTMLESLSTEKNSLVFQLERLEQQMNSASGSSSNGSSINMSGIDNGEGTRLRNVPVLFNDTETNLAGMYGKVRKAASSIDQFSIRLGIFLRRYPIARVFVIIYMALLHLWVMIVLLTYTPEMHHDQPYGK
modifications: phospho S116
On to B1, for which the HBV/mock turned out to be 1.388.

B2: P19823 1xPhospho [S60(100)] (protein, UniProt P19823 55-702, looked up)
Inter-alpha-trypsin inhibitor …: SLPGESEEMMEEVDQVTLYSYKVQSTITSRMATTMIQSKVVNNSPQPQNVVFDVQIPKGAFISNFSMTVDGKTFRSSIKEKTVGRALYAQARAKGKTAGLVRSSALDMENFRTEVNVLPGAKVQFELHYQEVKWRKLGSYEHRIYLQPGRLAKHLEVDVWVIEPQGLRFLHVPDTFEGHFDGVPVISKGQQKAHVSFKPTVAQQRICPNCRETAVDGELVVLYDVKREEKAGELEVFNGYFVHFFAPDNLDPIPKNILFVIDVSGSMWGVKMKQTVEAMKTILDDLRAEDHFSVIDFNQNIRTWRNDLISATKTQVADAKRYIEKIQPSGGTNINEALLRAIFILNEANNLGLLDPNSVSLIILVSDGDPTVGELKLSKIQKNVKENIQDNISLFSLGMGFDVDYDFLKRLSNENHGIAQRIYGNQDTSSQLKKFYNQVSTPLLRNVQFNYPHTSVTDVTQNNFHNYFGGSEIVVAGKFDPAKLDQIESVITATSANTQLVLETLAQMDDLQDFLSKDKHADPDFTRKLWAYLTINQLLAERSLAPTAAAKRRITRSILQMSLDHHIVTPLTSLVIENEAGDERMLADAPPQDPSCCSGALYYGSKVVPDSTPSWANPSPTPVISMLAQGSQVLESTPPPHVMRVEND
modifications: phosphorylated S60
Regarding B2, the HBV/mock was 7.369.

B3: P19823 1xPhospho [S60(99.6)] (protein, UniProt P19823 55-702, looked up)
Inter-alpha-trypsin inhibitor …: B2 Inter-alpha-trypsin inhibitor …
modifications: phospho S60
With B3, the HBV/mock was determined as 4.229.

B4: P08833 1xPhospho [S194(100)] (protein, UniProt P08833 26-259, looked up)
Insulin-like growth …: APWQCAPCSAEKLALCPPVSASCSEVTRSAGCGCCPMCALPLGAACGVATARCARGLSCRALPGEQQPLHALTRGQGACVQESDASAPHAAEAGSPESPESTEITEEELLDNFHLMAPSEEDHSILWDAISTYDGSKALHVTNIKKWKEPCRIELYRVVESLAKAQETSGEEISKFYLPNCNKNGFYHSRQCETSMDGEAGLCWCVYPWNGKRIPGSPEIRGDPNCQIYFNVQN
modifications: phosphorylated S194
For B4, the HBV/mock was determined as 2.1963.

B5: Q14161 2xPhospho [S/T] (protein, UniProt Q14161 1-759, looked up)
ARF GTPase-activating protein …: MSKRLRSSEVCADCSGPDPSWASVNRGTFLCDECCSVHRSLGRHISQVRHLKHTPWPPTLLQMVETLYNNGANSIWEHSLLDPASIMSGRRKANPQDKVHPNKAEFIRAKYQMLAFVHRLPCRDDDSVTAKDLSKQLHSSVRTGNLETCLRLLSLGAQANFFHPEKGNTPLHVASKAGQILQAELLAVYGADPGTQDSSGKTPVDYARQGGHHELAERLVEIQYELTDRLAFYLCGRKPDHKNGQHFIIPQMADSSLDLSELAKAAKKKLQSLSNHLFEELAMDVYDEVDRRETDAVWLATQNHSALVTETTVVPFLPVNPEYSSTRNQGRQKLARFNAHEFATLVIDILSDAKRRQQGSSLSGSKDNVELILKTINNQHSVESQDNDQPDYDSVASDEDTDLETTASKTNRQKSLDSDLSDGPVTVQEFMEVKNALVASEAKIQQLMKVNNNLSDELRIMQKKLQTLQSENSNLRKQATTNVYQVQTGSEYTDTSNHSSLKRRPSARGSRPMSMYETGSGQKPYLPMGEASRPEESRMRLQPFPAHIGRSALVTSSSSLPSFPSTLSWSRDESARRASRLEKQNSTPESDYDNTPNDMEPDGMGSSRKGRQRSMVWPGDGLVPDTAEPHVAPSPTLPSTEDVIRKTEQITKNIQELLRAAQENKHDSYIPCSERIHVAVTEMAALFPKKPKSDMVRTSLRLLTSSAYRLQSECKKTLPGDPGSPTDVQLVTQQVIQCAYDIAKAAKQLVTITTKENNN
modifications: diphosphorylated
For the molecule B5, the HBV/mock was determined as 1.489.

B6: Q99988 1xPhospho [S219(100)] (protein, UniProt Q99988 195-308, looked up)
Growth/differentiation factor …: ARARNGDHCPLGPGRCCRLHTVRASLEDLGWADWVLSPREVQVTMCIGACPSQFRAANMHAQIKTSLHRLKPDTVPAPCCVPASYNPMVLIQKTDTGVSLQTYDDLLAKDCHCI
modifications: phosphorylated S219
Turning to B6, the HBV/mock was 3.937.

B7: Q9UGU5 2xPhospho [S512(100); S/T] (protein, UniProt Q9UGU5 1-601, looked up)
HMG domain-containing protein …: MAYDDSVKKEDCFDGDHTFEDIGLAAGRSQREKKRSYKDFLREEEEIAAQVRNSSKKKLKDSELYFLGTDTHKKKRKHSSDDYYYGDISSLESSQKKKKKSSPQSTDTAMDLLKAITSPLAAGSKPSKKTGEKSSGSSSHSESKKEHHRKKVSGSSGELPLEDGGSHKSKKMKPLYVNTETLTLREPDGLKMKLILSPKEKGSSSVDEESFQYPSQQATVKKSSKKSARDEQGALLLGHELQSFLKTARKKHKSSSDAHSSPGPEGCGSDASQFAESHSANLDLSGLEPILVESDSSSGGELEAGELVIDDSYREIKKKKKSKKSKKKKDKEKHKEKRHSKSKRSLGLSAVPVGEVTVTSGPPPSIPYAGAAAPPLPLPGLHTDGHSEKKKKKEEKDKERERGEKPKKKNMSAYQVFCKEYRVTIVADHPGIDFGELSKKLAEVWKQLPEKDKLIWKQKAQYLQHKQNKAEATTVKRKASSSEGSMKVKASSVGVLSPQKKSPPTTMLLPASPAKAPETEPIDVAAHLQLLGESLSLIGHRLQETEGMVAVSGSLSVLLDSIICALGPLACLTTQLPELNGCPKQVLSNTLDNIAYIMPGL
modifications: diphosphorylated incl. S512
B7: the HBV/mock was 1.332.

B8: O43719 2xPhospho [S713(100); S714(100)] (protein, UniProt O43719 2-755, looked up)
17S U2 SnRNP complex …: SGTNLDGNDEFDEQLRMQELYGDGKDGDTQTDAGGEPDSLGQQPTDTPYEWDLDKKAWFPKITEDFIATYQANYGFSNDGASSSTANVEDVHARTAEEPPQEKAPEPTDARKKGEKRKAESGWFHVEEDRNTNVYVSGLPPDITVDEFIQLMSKFGIIMRDPQTEEFKVKLYKDNQGNLKGDGLCCYLKRESVELALKLLDEDEIRGYKLHVEVAKFQLKGEYDASKKKKKCKDYKKKLSMQQKQLDWRPERRAGPSRMRHERVVIIKNMFHPMDFEDDPLVLNEIREDLRVECSKFGQIRKLLLFDRHPDGVASVSFRDPEEADYCIQTLDGRWFGGRQITAQAWDGTTDYQVEETSREREERLRGWEAFLNAPEANRGLRRSDSVSASERAGPSRARHFSEHPSTSKMNAQETATGMAFEEPIDEKKFEKTEDGGEFEEGASENNAKESSPEKEAEEGCPEKESEEGCPKRGFEGSCSQKESEEGNPVRGSEEDSPKKESKKKTLKNDCEENGLAKESEDDLNKESEEEVGPTKESEEDDSEKESDEDCSEKQSEDGSEREFEENGLEKDLDEEGSEKELHENVLDKELEENDSENSEFEDDGSEKVLDEEGSEREFDEDSDEKEEEEDTYEKVFDDESDEKEDEEYADEKGLEAADKKAEEGDADEKLFEESDDKEDEDADGKEVEDADEKLFEDDDSNEKLFDEEEDSSEKLFDDSDERGTLGGFGSVEEGPLSTGSSFILSSDDDDDDI
modifications: phosphorylated S713, S714
Consider B8, for which the HBV/mock turned out to be 1.312.

B9: P85037 2xPhospho [S213(100); S223(100)] (protein, UniProt P85037 2-733, looked up)
Forkhead box protein K1: AEVGEDSGARALLALRSAPCSPVLCAAAAAAAFPAAAPPPAPAQPQPPPGPPPPPPPPLPPGAIAGAGSSGGSSGVSGDSAVAGAAPALVAAAAASVRQSPGPALARLEGREFEFLMRQPSVTIGRNSSQGSVDLSMGLSSFISRRHLQLSFQEPHFYLRCLGKNGVFVDGAFQRRGAPALQLPKQCTFRFPSTAIKIQFTSLYHKEEAPASPLRPLYPQISPLKIHIPEPDLRSMVSPVPSPTGTISVPNSCPASPRGAGSSSYRFVQNVTSDLQLAAEFAAKAASEQQADTSGGDSPKDESKPPFSYAQLIVQAISSAQDRQLTLSGIYAHITKHYPYYRTADKGWQNSIRHNLSLNRYFIKVPRSQEEPGKGSFWRIDPASEAKLVEQAFRKRRQRGVSCFRTPFGPLSSRSAPASPTHPGLMSPRSGGLQTPECLSREGSPIPHDPEFGSKLASVPEYRYSQSAPGSPVSAQPVIMAVPPRPSSLVAKPVAYMPASIVTSQQPAGHAIHVVQQAPTVTMVRVVTTSANSANGYILTSQGAAGGSHDAAGAAVLDLGSEARGLEEKPTIAFATIPAAGGVIQTVASQMAPGVPGHTVTILQPATPVTLGQHHLPVRAVTQNGKHAVPTNSLAGNAYALTSPLQLLATQASSSAPVVVTRVCEVGPKEPAAAVAATATTTPATATTASASASSTGEPEVKRSRVEEPSGAVTTPAGVIAAAGPQGPGTGE
modifications: phospho S213, S223
As for B9, the HBV/mock is listed as 1.303.

B10: P85037 2xPhospho [S441(99.6); S445(99.6)] (protein, UniProt P85037 2-733, looked up)
Forkhead box protein K1: B9 Forkhead box protein K1
modifications: phosphorylated S441, S445
With B10, the HBV/mock is recorded as 1.308.

B11: O00178 2xPhospho [S] (protein, UniProt O00178 1-669, looked up)
GTP-binding protein 1: MATERSRSAMDSPVPASMFAPEPSSPGAARAAAAAARLHGGFDSDCSEDGEALNGEPELDLTSKLVLVSPTSEQYDSLLRQMWERMDEGCGETIYVIGQGSDGTEYGLSEADMEASYATVKSMAEQIEADVILLRERQEAGGRVRDYLVRKRVGDNDFLEVRVAVVGNVDAGKSTLLGVLTHGELDNGRGFARQKLFRHKHEIESGRTSSVGNDILGFDSEGNVVNKPDSHGGSLEWTKICEKSTKVITFIDLAGHEKYLKTTVFGMTGHLPDFCMLMVGSNAGIVGMTKEHLGLALALNVPVFVVVTKIDMCPANILQETLKLLQRLLKSPGCRKIPVLVQSKDDVIVTASNFSSERMCPIFQISNVTGENLDLLKMFLNLLSPRTSYREEEPAEFQIDDTYSVPGVGTVVSGTTLRGLIKLNDTLLLGPDPLGNFLSIAVKSIHRKRMPVKEVRGGQTASFALKKIKRSSIRKGMVMVSPRLNPQASWEFEAEILVLHHPTTISPRYQAMVHCGSIRQTATILSMDKDCLRTGDKATVHFRFIKTPEYLHIDQRLVFREGRTKAVGTITKLLQTTNNSPMNSKPQQIKMQSTKKGPLTKRDEGGPSGGPAVGAPPPGDEASSVGAGQPAASSNLQPQPKPSSGGRRRGGQRHKVKSQGACVTPASGC
modifications: diphosphorylated
In the case of B11, the HBV/mock was 1.452.

These data come from paper PMC9104152, “Phosphoproteomics Unravel HBV Triggered Rewiring of Host Phosphosignaling Events” (International Journal of Molecular Sciences, 2022).
